Experiments:
[1] = test system: AptaFluor detection reagents; assay: Tolerance of substrates and reagents in the AptaFluor SAH assay; conditions: 10 nM SAH
[2] = test system: AptaFluor detection reagents; assay: Interference dose response assay in mock reactions lacking nsp14; conditions: 90 nM SAM and 10 nM SAH, up to 100 μM

| Compound | Tolerance (maximum concentration with < 10% change in assay signal) [1] | interference with AptaFluor signal in dose response mode [2] |
| --- | --- | --- |
| [Cl][Mn][Cl] [MnCl2] | 2 mM |  |
| O[C@@H](CS)[C@@H](O)CS [DTT] | 1% |  |
| C[S+](C)[O-] [DMSO] | 3% |  |
| [Cl-].[Cl-].[Mg+2] [MgCl2] | 250 mM |  |
| NP40 | 0.60% |  |
| OCC(O)CO [Glycerol] | 12.50% |  |
| CN(C)C=O [DMF] | 0.78% |  |
| [Ca+2].[Cl-].[Cl-] [CaCl2] | 10 mM |  |
| COc1ncc(-c2ccc3c(Nc4cc(Oc5cc(F)cc(F)c5)cc(C(=O)O)c4)c(S(=O)(=O)NC4CC4)cnc3c2)c(OC)n1 [GSK-2837808A] |  | dose dependent decrease in signal |
| O=C1C(Cl)=C(NCCN2CCOCC2)C(=O)c2ncccc21 [NSC-663284] |  | no effect |
| CC1(C)C(=O)N=C2C1=C(O)C(=O)c1ccccc12 [BVT-948] |  | no effect |

Source: PMC11188199, “Development and validation of a generic methyltransferase enzymatic assay based on an SAH riboswitch” (SLAS discovery : advancing life sciences R & D, 2024)
